Pooled drug test results. Numbers come from NIAID ChemDB, via PubChem.

Shared fields: whole-cell or culture tests; organism: Candida albicans

ECn is the concentration giving n% inhibition of infection, replication or growth. A number after MIC or MFC names an inhibition level or a share of isolates. Lines come from different laboratories, so protocols vary. Blank or dashed fields: not listed here.

| SMILES | read by | measure | strain | value |
|---|---|---|---|---|
| COc1cc(NC(C)CCCNC(=O)CC(NC(=O)[C@H](N)CCCN)C(=O)O)c2nc(C(C)(C)C)ccc2c1 | broth dilution | EC50 |  | >20 µg/mL |
| Cc1c(C(=O)c2ccccc2)oc2ccc(Cl)cc12 |  | MIC | Clinical isolate | 50 µg/mL |
| CNC1C(C)OC(O[C@H]2c3cc(C)c(C(=O)N[C@H](C)C(N)=O)c(O)c3-c3c(cc4c(c3O)C(=O)c3cc(OC)cc(O)c3C4=O)[C@@H]2O)C(O)C1OC1OCC(O)C(O)C1O |  | MIC | A9540 | 6.3 µg/mL |
| COc1cc(NC(C)CCCNC(=O)CC(NC(=O)[C@@H](N)CCCCN)C(=O)O)c2nc(C(C)(C)C)ccc2c1 | broth dilution | EC50 |  | >20 µg/mL |
| O=C1OC(c2ccc(Oc3ccccc3)cc2)=C/C1=C\c1c(Cl)cccc1Cl |  | MIC |  | >100 µg/mL |
| C=CC(C)(C)c1[nH]c2ccccc2c1/C=c1\[nH]c(=O)c2n(c1=O)CCC=2 |  | MIC | SC5314 | >100 µg/mL |
| Nc1[nH]c(=O)ncc1F |  | MIC90 | 97 isolates | 0.5 µg/mL |
| CNC1C(C)OC(O[C@H]2c3cc(C)c(C(=O)N[C@H](C)C(=O)N[C@@H](CC(=O)O)C(=O)O)c(O)c3-c3c(cc4c(c3O)C(=O)c3cc(OC)cc(O)c3C4=O)[C@@H]2O)C(O)C1OC1OCC(O)C(O)C1O |  | MIC | A9540 | >100 µg/mL |
| C=CCc1ccc(OC)c(OC)c1 | turbidity | MIC90 | ATCC 90028 | 340 µg/mL |
| Cc1c(C(=O)c2ccccc2)oc2ccccc12 |  | MIC | Clinical isolate | 25 µg/mL |
| Nn1c(SCC(O)(Cn2cncn2)c2ccc(F)cc2F)nnc1-c1ccncc1 | broth dilution | MIC | PTCC 6027 | >64 µg/mL |
| CCCC(Cn1ccnc1)c1ccc(Cl)cc1Cl |  | MIC |  | >100 µg/mL |
| C/C(=N\NC(=S)Nc1ccc(Cl)cc1)c1ccccn1 | broth dilution | MIC | ATCC 10231 | 17 µM |
| CC1CC2=C(O1)c1ccccc1C(=O)C2=O | broth dilution | MIC | 1 | 8 µg/mL |
| COc1cccc(/C=C2\C=C(c3ccc(Oc4ccccc4)cc3)OC2=O)c1 |  | MIC |  | >100 µg/mL |
| CCCCCCCC(Cn1ccnc1)c1ccccc1Br |  | MIC |  | >100 µg/mL |
| C[C@H]1[C@H](O)[C@@H](C)/C=C/C=C/C=C/C=C/C=C/C=C/C=C/[C@H](O[C@@H]2O[C@H](C)[C@@H](O)[C@H](N)[C@@H]2O)C[C@@H]2O[C@](O)(C[C@@H](O)C[C@@H](O)CC[C@H](O)[C@@H](O)C[C@@H](O)CC(=O)O[C@H]1C)C[C@H](O)[C@H]2C(=O)O |  | MIC90 | 34 isolates | 0.5 µg/mL |
| Cc1ccc(/C=C2\SC(=O)N(CC(O)(Cn3nccn3)c3ccc(F)cc3F)C2=O)c(C)c1 |  | MIC80 | CaCYP51 | 0.13 µg/mL |
| CNOC(=O)[C@@H](C)NC(=O)c1c(C)cc2c(c1O)-c1c(cc3c(c1O)C(=O)c1cc(OC)cc(O)c1C3=O)[C@H](O)[C@H]2OC1OC(C)C(NC)C(OC2OCC(O)C(O)C2O)C1O |  | MIC | A9540 | 6.3 µg/mL |
| O=C1S/C(=C\c2ccccc2Br)C(=O)N1CC(O)(Cn1nccn1)c1ccc(F)cc1F |  | MIC80 | CaCYP51 | 1.92 µg/mL |
| Cn1c(SCC(=O)c2ccc(Cl)cc2)nc2c(sc(=S)n2C)c1=O |  | MIC | ATCC 90018 | 256 µg/mL |
| Cc1ccc(-c2nnc(SCC(O)(Cn3cncn3)c3ccc(Cl)cc3Cl)n2N)cc1 | broth dilution | MIC | IRFC 36 | >64 µg/mL |
| COc1cc(NC(C)CCCNC(=O)[C@@H](CCCN=C(N)N)NC(=O)[C@H](N)CCCN=C(N)N)c2ncccc2c1 | broth dilution | MIC |  | >20 µg/mL |
| Nn1c(SCC(O)(Cn2cncn2)c2ccc(F)cc2F)nnc1-c1ccc(Cl)cc1 | broth dilution | MIC | IRFC 192 | >64 µg/mL |
| O=C(c1ccc(Cl)cc1)c1oc2ccc(Cl)cc2c1Cn1ccnc1 |  | MIC | Clinical isolate | 25 µg/mL |
| COc1cc(NC(C)CCCNC(=O)CC(NC(=O)[C@H](N)CCCCN)C(=O)O)c2ncccc2c1 | broth dilution | MIC |  | >20 µg/mL |
| Nn1c(SCC(O)(Cn2cncn2)c2ccc(F)cc2F)nnc1-c1ccccc1 | broth dilution | MIC | IRFC 37 | >64 µg/mL |
| C=C(CN(C)C)C(=O)c1ccc(Cl)cc1 |  | EC50 |  | 11.01 µM |
| O=C1CSC(=O)N1CC(O)(Cn1nccn1)c1ccc(F)cc1F |  | MIC80 | CaCYP51 | 0.17 µg/mL |
| C=C(CN1CCOCC1)C(=O)c1ccc(OC)cc1 |  | MIC |  | 128 µg/mL |
| C=CC(C)(C)c1[nH]c2ccccc2c1/C=c1\[nH]c(=O)c2cccn2c1=O |  | MIC | SC5314 | >100 µg/mL |
| O=C(c1ccccc1)c1oc2ccccc2c1Cn1ccnc1 |  | MIC | NRRL Y-27077 | 25 µg/mL |
| CCn1c(SCC(=O)c2ccc(Br)cc2)nc2c(sc(=S)n2C)c1=O |  | MIC | ATCC 90018 | 128 µg/mL |
| CCCCCCCCC(Cn1ccnc1)c1ccc(Cl)cc1 |  | MIC |  | 10 µg/mL |
| O=C1NC(c2ccc(Oc3ccccc3)cc2)=C/C1=C\c1ccccc1 |  | MIC |  | 50 µg/mL |
| O=C1N[C@@H](Cc2ccc(O)cc2)C(=O)N2CCC[C@H]12 | broth dilution | MIC | MTCC 277 | 32 µg/mL |
| Cc1c(C(=O)c2ccc(Cl)cc2)oc2ccccc12 |  | MIC | Clinical isolate | 25 µg/mL |
| CCCCCCCCOc1ccc(C(=O)NC2C[C@@H](O)[C@@H](O)NC(=O)C3[C@@H](O)[C@@H](C)CN3C(=O)C(C(C)O)NC(=O)C([C@H](O)[C@@H](O)c3ccc(O)cc3)NC(=O)C3C[C@@H](O)CN3C(=O)C(C(C)O)NC2=O)cc1 |  | MIC | CS | 0.25 µg/mL |
| Nn1c(SCC(O)(Cn2cncn2)c2ccc(Cl)cc2Cl)nnc1-c1ccc(Cl)cc1 | broth dilution | MIC | ATCC 18804 | >64 µg/mL |
| CNC1C(C)OC(O[C@H]2c3cc(C)c(C(=O)N[C@H](C)C(=O)N[C@H](C)C(=O)O)c(O)c3-c3c(cc4c(c3O)C(=O)c3cc(OC)cc(O)c3C4=O)[C@@H]2O)C(O)C1OC1OCC(O)C(O)C1O |  | MIC | A9540 | 25 µg/mL |
| CCc1ccc2c(C)c(C(=O)c3ccc(Cl)cc3)oc2c1 |  | MIC | NRRL Y-27077 | 50 µg/mL |
| COc1cc(NC(C)CCCNC(=O)CCC(NC(=O)[C@H](N)CCCCN)C(=O)O)c2nc(C(C)(C)C)ccc2c1 | broth dilution | EC50 |  | >20 µg/mL |
| C/C(=N\NC(=S)Nc1ccc(I)cc1)c1ccccn1 | broth dilution | MIC | ATCC 10231 | 10.7 µM |
| O=C1S/C(=C\c2ccccn2)C(=O)N1CC(O)(Cn1nccn1)c1ccc(F)cc1F |  | MIC80 | CaCYP51 | 2.25 µg/mL |
| C=CC(C)(C)c1[nH]c2ccccc2c1/C=C1\NC(=O)C2(O)C(O)CCN2C1=O |  | MIC | SC5314 | >100 µg/mL |
| Nn1c(SCC(O)(Cn2cncn2)c2ccc(Cl)cc2Cl)nnc1-c1ccncc1 | broth dilution | MIC | IRFC 36 | >64 µg/mL |
| Cn1c(SCC(=O)c2ccccc2)nc2c(sc(=S)n2C)c1=O |  | MIC | ATCC 90018 | 256 µg/mL |
| COC1=CC(=O)C[C@@H](C)[C@]12Oc1c(Cl)c(OC)cc(OC)c1C2=O |  | MIC | 10231 | 50 µg/mL |
| CCCCCOc1ccc(-c2ccc(-c3ccc(C(=O)N[C@H]4C[C@@H](O)[C@@H](O)NC(=O)[C@@H]5[C@@H](O)[C@@H](C)CN5C(=O)[C@H]([C@H](C)O)NC(=O)[C@H]([C@H](O)[C@@H](O)c5ccc(O)cc5)NC(=O)[C@@H]5C[C@@H](O)CN5C(=O)[C@H]([C@H](C)O)NC4=O)cc3)cc2)cc1 |  | MIC90 | 15 strains | 0.5 µg/mL |
| Nn1c(SCC(O)(Cn2cncn2)c2ccc(F)cc2F)nnc1-c1ccc(F)cc1 | broth dilution | MIC | IRFC 36 | >64 µg/mL |
| COc1cc(NC(C)CCCNC(=O)[C@H](CCCN)NC(=O)[C@@H](N)CCCN)c2ncccc2c1 | broth dilution | MIC |  | >20 µg/mL |
| C=C(CN(C)C)C(=O)c1ccc(OC)cc1 |  | EC50 |  | 18.11 µM |
| Nn1c(SCC(O)(Cn2cncn2)c2ccc(F)cc2F)nnc1-c1cccc(Br)c1 | broth dilution | MIC | IRFC 36 | >64 µg/mL |
| COc1ccc2c(C)c(/C(=N/O)c3ccc(Cl)cc3)oc2c1 |  | MIC | Clinical isolate | 12.5 µg/mL |
| CCCCC(Cn1ccnc1)c1ccccc1Cl |  | MIC |  | 100 µg/mL |
| CNC1C(C)OC(O[C@H]2c3cc(C)c(C(=O)N[C@H](C)C(=O)N[C@@H](CCCCN)C(=O)O)c(O)c3-c3c(cc4c(c3O)C(=O)c3cc(OC)cc(O)c3C4=O)[C@@H]2O)C(O)C1OC1OCC(O)C(O)C1O |  | MIC | A9540 | >100 µg/mL |
| CCn1c(SCC(=O)c2ccc(C)cc2)nc2c(sc(=S)n2C)c1=O |  | MIC | ATCC 90018 | ≥512 µg/mL |
| COc1cc(NC(C)CCCNC(=O)[C@H](CCCN=C(N)N)NC(=O)[C@@H](N)CCCN=C(N)N)c2nc(C(C)(C)C)ccc2c1 | broth dilution | EC50 |  | >20 µg/mL |
| C[C@H]1[C@H](O)[C@@H](C)/C=C/C=C/C=C/C=C/C=C/C=C/C=C/[C@H](O[C@@H]2O[C@H](C)[C@@H](O)[C@H](N)[C@@H]2O)C[C@@H]2O[C@](O)(C[C@@H](O)C[C@@H](O)CC[C@H](O)[C@@H](O)C[C@@H](O)CC(=O)O[C@H]1C)C[C@H](O)[C@H]2C(=O)O | broth dilution | MIC | MTCC 277 | 50 µg/mL |
| O=C1NC(c2ccc(Oc3ccccc3)cc2)=C/C1=C\c1cccs1 |  | MIC |  | 10 µg/mL |
| O/N=C(\c1ccc(Cl)cc1)c1oc2ccc(Cl)cc2c1Cn1ccnc1 |  | MIC | NRRL Y-27077 | 12.5 µg/mL |
| CCn1cnc2c(sc(=S)n2C)c1=O |  | MIC | ATCC 90018 | 64 µg/mL |